{
  "source": "patent US20080076824A1",
  "about": "“Compounds That Inhibit Replication Of Human Immunodeficiency Virus” (priority 2004, published 2008)",
  "system": "HIV-1 (IIIB)",
  "conditions": "read-out: EC50 against HIV-1(IIIB); CEM cell cultures, Table 2",
  "data": [
    {"smiles": "C[C@H](N)C(=O)N1CCC[C@H]1C(=O)NCC(=O)N[C@@H](Cc1c[nH]c2ccccc12)C(N)=O", "note": "[Ala-Pro-Gly-Trp-amide, reference compound]", "values": [
      {"measurement": "EC50", "value": "> 500", "unit": "µM"}
    ]}
  ]
}
